Measurements as given in patent publication EP0286491B1, “Antimalarial aminoquinoline derivatives, method for their preparation and pharmaceutical composition containing them” (LA REGION WALLONNE, priority 1987, dated 1988).

Each compound was assayed on P. berghei berghei (ANKA) (assay: Causal prophylactic activity in the rodent malaria model (sporozoite-infected mice, single i.v. treatment 3 h after inoculation)). Conditions: ratio LD₅₀/CPD₅₀.
Assay type: in vivo, souris Swiss OF1
From the text: Le modèle de la malaria du rongeur, Plasmodium berghei-Anopheles stephensi-souris, mis au point par MOST, H., HERMAN, R. & SCHOENFELD, C. (1967) Am. J. Trop. Med. Hyg. 16, 572-575, permet de déterminer l'activité prophylactique causale (schizonticide tissulaire) de nouveaux composés thérapeutiques. La procédure utilisée est dérivée de celle de MOST, H. & MONTUORI, W.A. (1975) Am. J. Trop. Med. Hyg. 24, 179-182. Il s'agit du système P. berghei berghei (ANKA)- Anopheles stephensi-souris Swiss OF1. La souche ANKA de P. b. berghei est entretenue cycliquement sur Anopheles stephensi. La souche de souris Swiss OF1 est particulièrement sensible à P. b. berghei qui produit une infection toujours mortelle.
Les moustiques femelles (80 à 100 individus par préparation) sont débarassés de leurs pattes, ailes et abdomen, puis homogénéisés à 4°C à l'aide d'un potter en verre, dans du milieu M 199 (GIBCO) contenant 10 % de sérum foetal de veau. La suspension de sporozoïtes est ensuite purifiée des débris du moustique par deux centrifugations successives ( 2 min. à 50 g et 5 min. à 200 g) et le surnageant recueilli est conservé à 4°C. Après comptage dans une chambre de Petroff-Hausser, le nombre de parasites est ajusté par dilution avec le même milieu froid, à la densité de 2 x 10⁵ sporozoïtes/ml. L'ensemble de la procédure est toujours effectuée dans un maximum de 35 minutes et permet de préserver la viabilité et l'infectivité des sporozoïtes.
Un volume de 0,5 ml de la suspension contenant 10⁵ sporozoïtes est injectée i.v. aux souris Swiss OF1 femelles de 18 à 22 g utilisées pour les tests thérapeutiques.
Des groupes de 20 à 25 souris infectées comme décrit ci-dessus sont traités en une seule injection intraveineuse de primaquine diphosphate (Pq) ou des dérivés monoacyls et aminoacides de la primaquine sous formes dichlorhydrates (X-Pq) trois heures après l'inoculation des sporozoïtes. Le volume injecté est ajusté en fonction du poids de la souris, à raison de 0,5 ml pour un poids de 25 g. Les composés sont dilués dans du tampon phosphate salin (PBS) pH 7.0 et le pH est ajusté à 7.0. Les souris infectées mais non traitées (5 par groupe) reçoivent le tampon seul et servent à contrôler l'infectivité des sporozoïtes.
Les souris expérimentales sont gardées durant une période de 50 jours. Le développement de la parasitémie est suivi en examinant quotidiennement des frottis de sang, colorés 60 min. au Giemsa à 5 % dans du tampon Sörensen à pH 7,2, à partir du 5ème jour et ce jusqu'au 15ème jour. Le nombre d'animaux infectés peut ainsi être déterminé. Ces résultats permettent d'établir la survie à long terme (LTS, le nombre de souris survivantes non parasitées sur le nombre de souris infectées et traitées). […]

SMILES | index thérapeutique (LD₅₀/CPD₅₀)
COc1cc(NC(C)CCCNC(=O)[C@H](C)N)c2ncccc2c1 (stereo partly drawn) [L-alanyl-Pq, N-1-L-alanyl, N-4-(méthoxy-6-quinolinyl-8) pentanediamine-1,4] | 7,5
COc1cc(NC(C)CCCNC(=O)[C@H](CC(C)C)NC(=O)[C@H](C)N)c2ncccc2c1 (stereo partly drawn) [L-leucyl-L-alanyl-Pq, N-1-L-Alanyl-L-Leucyl, N-4-(Méthoxy-6-quinolinyl-8) pentanediamine-1,4] | 3,7
COc1cc(NC(C)CCCNC(=O)[C@@H](N)CCCCN)c2ncccc2c1 (stereo partly drawn) [L-lysyl-Pq] | 2,6
COc1cc(NC(C)CCCNC(=O)[C@@H](N)Cc2ccccc2)c2ncccc2c1 (stereo partly drawn) [L-phenylalanyl-Pq, N-1-L-phénylalanyl , N-4(methoxy-6-quinolinyl-8) pentanediamine-1,4] | 5,3
